Reference: PMC10739260, “Shape-Based Virtual Screening of a Billion-Compound Library Identifies Mycobacterial Lipoamide Dehydrogenase Inhibitors” (ACS Bio & Med Chem Au, 2023)

The chains behind the UniProt entries cited, without tags or fusion partners.
UniProt P9WHH9, whole entry: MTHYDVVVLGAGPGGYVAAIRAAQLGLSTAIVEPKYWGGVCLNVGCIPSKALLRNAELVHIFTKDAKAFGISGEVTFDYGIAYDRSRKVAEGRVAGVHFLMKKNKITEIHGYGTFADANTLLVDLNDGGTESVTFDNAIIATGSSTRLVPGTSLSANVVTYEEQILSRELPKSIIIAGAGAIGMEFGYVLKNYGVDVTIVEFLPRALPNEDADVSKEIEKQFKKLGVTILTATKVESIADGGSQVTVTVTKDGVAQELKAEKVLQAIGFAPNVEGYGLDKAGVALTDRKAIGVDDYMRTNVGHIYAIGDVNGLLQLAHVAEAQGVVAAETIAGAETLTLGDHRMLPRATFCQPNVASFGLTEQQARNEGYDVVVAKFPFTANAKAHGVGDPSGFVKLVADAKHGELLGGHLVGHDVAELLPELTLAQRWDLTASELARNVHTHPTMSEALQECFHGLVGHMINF

Columns and labels:
PDH complex = PDH complex (Mycobacterium tuberculosis, UniProt P9WHH9); assay: PDH complex inhibition; format: biochemical; conditions: read-out: PDH IC50; Table S1, known actives used as probes in GPU Shape screen
Mtb Lpd = Mtb Lpd (Mycobacterium tuberculosis, UniProt P9WHH9); assay: Lpd enzyme assay (spectrophotometric, DTNB, lipoamide, NADH); format: biochemical; conditions: read-out: LPD IC50
Mtb = Mtb MIC assay (bacterial growth inhibition); format: cell-based, Mycobacterium tuberculosis; conditions: Table S1, known actives used as probes in GPU Shape screen
[1] = Table S1, known actives used as probes in GPU Shape screen
[2] = Table S2, pre-existing SAR of sulfonamide series

Row | Compound | IC50 (PDH complex) | IC50 (Mtb Lpd; [1]) | Mtb MIC (Mtb) | IC50 (Mtb Lpd; [2])
1 | COc1ccc(NC(=O)CN(C)S(=O)(=O)c2cc(C)cc3cn[nH]c23)cc1Cl | 130 nM | 20 nM | 25 µM | –
2 | CN(CC(=O)Nc1ccn(C)c(=O)c1)S(=O)(=O)c1cccc2cn[nH]c12 | – | – | – | 1800 nM
3 | Cc1cc(S(=O)(=O)N(C)CC(=O)Nc2ccc3c(c2)N(C)CCO3)c2[nH]ncc2c1 | 50 nM | 17 nM | 13 µM | –
4 | Cc1cc(S(=O)(=O)N(C)CC(=O)Nc2ccn(C)c(=O)c2)c2[nH][nH]c(=O)c2c1 | 100 nM | 71 nM | > 100 µM | –
5 | COc1ccc(NC(=O)CN(C)S(=O)(=O)c2cccnc2N)cc1Cl | – | – | – | 5900 nM
6 | CN(CC(=O)Nc1ccc(N2CCOCC2)c(Cl)c1)S(=O)(=O)c1cc(Br)cc2cn[nH]c12 | 100 nM | 4 nM | > 25 µM | –
7 | CCN(CC(=O)Nc1ccn(C)c(=O)c1)S(=O)(=O)c1cc(C)cc2cn[nH]c12 | 40 nM | – | 6 µM | –
8 | Cc1cc(S(=O)(=O)N(C)CC(=O)Nc2ccc(N3CCN(C)CC3)c(Cl)c2)c2[nH]ncc2c1 | 1 nM | 44 nM | 2 µM | –
9 | Cc1cc(S(=O)(=O)N(C)CC(=O)Nc2ccc3c(c2)OCCN3C)c2[nH]ncc2c1 | 50 nM | 4 nM | 3 µM | –
10 | CN(CC(=O)Nc1ccn(C)c(=O)c1)S(=O)(=O)c1cc(C(F)F)cc2cn[nH]c12 | 160 nM | 47 nM | 6 µM | –
11 | Cc1cc(S(=O)(=O)N(C)CC(=O)Nc2ccn(C)c(=O)c2)c2[nH]nc(C)c2c1 | 470 nM | 66 nM | 50 µM | –
12 | Cc1cc(S(=O)(=O)N(C)CC(=O)Nc2ccc3c(c2)OCCN3C2CCOCC2)c2[nH]ncc2c1 | 4 nM | 42 nM | 1 µM | –
13 | COc1ccc(NC(=O)CN(C)S(=O)(=O)c2cc(C)cnc2N)cc1Cl | – | – | – | 70 nM
14 | CN(CC(=O)Nc1ccn(C)c(=O)c1)S(=O)(=O)c1cc(Br)cc2cn[nH]c12 | – | – | 6 µM | –
15 | Cc1cc(S(=O)(=O)N(C)CC(=O)Nc2ccc3c(c2)OCCO3)c2[nH]ncc2c1 | 50 nM | 11 nM | 25 µM | –
16 | COc1cccc2[nH]c(CN(C)S(=O)(=O)c3cc(C)cc4cn[nH]c34)nc12 | 10 nM | 38 nM | 50 µM | –
17 | Cc1cc(S(=O)(=O)N(C)CC(=O)Nc2ccc3ncccc3c2)c2[nH]ncc2c1 | 10 nM | 22 nM | 3 µM | –
18 | Cc1cc(S(=O)(=O)N(C)CC(=O)Nc2ccc(N3CCOCC3)c(Cl)c2)c2[nH]ncc2c1 | 10 nM | – | 13 µM | –
19 | Cc1cc(S(=O)(=O)N(C)CC(=O)Nc2ccc3c(c2)OCCN3C2COC2)c2[nH]ncc2c1 | 4 nM | 28 nM | 2 µM | –
20 | CN(CC(=O)Nc1ccn(C)c(=O)c1)S(=O)(=O)c1cc(Cl)cc2cn[nH]c12 | 110 nM | 55 nM | 13 µM | –

Read-outs that look alike come from different tables or passages of the source.
